Results deposited as PubChem BioAssay AID504761 (Drosophila RNAi Screening Center, 2011).

Purpose: 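Insect host genes that dengue virus relies on to spread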 (primary screen)
System: D.Mel-2 cells from Drosophila
Knock-down reagent: long dsRNA against Drosophila genes
Conditions: infection with dengue virus type 2; dose and infection time not stated
Measured: 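Cells stained for dengue envelope protein and imaged; percent of infected cells per well on duplicate plates, ranked by infection, with stained nuclei counted for cell number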
Scale: infection score: higher = more virus-infected cells
Hit rule: 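Very low infection ranking in both replicate wells (chance probability at most 0.065), then a retest showing infection dropped 1.5-fold or more at p below 0.05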
Meaning of the calls: active = confirmed: knock-down lowers infection; inactive = not picked or not confirmed
The screen tested about 22,000 reagents; shown is an unselected part of those with a known target gene and a result. Over the whole deposit, 116 (0.52%) got an active call. 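Calls depend on retest data that are not deposited; infection was ranked per plate without normalising between plates; the unit of the infection score is not given.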 A number with no mark means an inactive call. Further read-outs or replicates are left out here. Not given: the amount of reagent, the time to read-out.

Knock-down of CG5565 [DRSC00690] resulted in: infection score, replicate 1 = 3.63. With knock-down of spidey [DRSC17932] the results were infection score, replicate 1 = 4.73. Depletion of spidey [DRSC30107] resulted in: infection score, replicate 1 = 3.07. CG13365 [DRSC17899] scored infection score, replicate 1 = 1.99. CG13365 [DRSC27043] scored infection score, replicate 1 = 6.69. With knock-down of CG14323 [DRSC14802], the screen gave infection score, replicate 1 = 1.39.

trus [DRSC15772] showed infection score, replicate 1 = 2.9. For trus [DRSC25521], the values are infection score, replicate 1 = 4.62.

Look-ups from above.
Value for CG5565 [DRSC00690] in “infection score, replicate 1”: 3.63
For “infection score, replicate 1”, spidey [DRSC30107] reads 3.07

Additional records:
For Fkbp39 [DRSC16667], the values are infection score, replicate 1 = 17.5. Knock-down of Fkbp39 [DRSC23792] came out at: infection score, replicate 1 = 0.94. Knock-down of car [DRSC20316] resulted in: infection score, replicate 1 = 19.5. With knock-down of car [DRSC26230] the results were infection score, replicate 1 = 8.07. CG10874 [DRSC00297] showed infection score, replicate 1 = 0.27. Against CG10874 [DRSC26108] the deposit lists infection score, replicate 1 = 10.9.
